Source: the supplement of paper PMC9931576
Human monoclonal antibodies against the spike receptor-binding domain (heavy:light variable regions). IC50 against pseudoviruses bearing the spike of naturally observed variants; lower = stronger; >10 µg/ml means not reached at the top dose. No active / inactive call. The stated detection limit is 0.0005 µg/ml; values near or below 0.001 µg/ml lie at the floor of the assay.

Legend:
Experiment in all cases: pseudovirus neutralization IC50; higher = weaker neutralization
[1] = target: SARS-CoV-2 Omicron BA.1 spike pseudovirus
Experimental: (§1)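 Single-round VSV luciferase pseudovirus mixed with antibody dilutions for 1 h and put on Huh-7 cells for about a day; IC50 from the dose curve.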

[2] = target: SARS-CoV-2 Omicron BA.2 spike pseudovirus
Experimental: as §1

[3] = target: SARS-CoV-2 Omicron BA.2.75 spike pseudovirus
Experimental: as §1

[4] = target: SARS-CoV-2 Omicron BA.5 spike pseudovirus
Experimental: as §1

[5] = target: SARS-CoV-2 Omicron BQ.1.1 spike pseudovirus
Experimental: as §1

[6] = target: SARS-CoV-2 Omicron XBB spike pseudovirus
Experimental: as §1

[7] = target: SARS-CoV-2 early D614G spike pseudovirus
Experimental: as §1

| Binder | pseudovirus neutralization IC50 [1] [mg/L] | pseudovirus neutralization IC50 [2] [mg/L] | pseudovirus neutralization IC50 [3] [mg/L] | pseudovirus neutralization IC50 [4] [mg/L] | pseudovirus neutralization IC50 [5] [mg/L] | pseudovirus neutralization IC50 [6] [mg/L] | pseudovirus neutralization IC50 [7] [mg/L] |
| --- | --- | --- | --- | --- | --- | --- | --- |
| BD-616 (protein) chain 1: EVQLVESGGGLVQPGGSLRLSCAASGFIVSSNYMSWVRQAPGKGLEWVSVIYSGGSTYYADSVKGRFTISRDNSKNTLYLRMNSLRAEDTAVYYCARAPYCSSRSCETWGQGTLVTVSS chain 2: DIQMTQSPSSLSASVGDRVTITCQASQDIRNYLNWYQQKPGKAPNLLIYDASNLETGVPSRFSGSGSGTDFTFTINSLQPEDIATYYCQQYDNLPITFGQGTRLEIK | > 10 | > 10 | > 10 | > 10 | > 10 | > 10 | 0.0585 |
| BD-907 (protein) chain 1: QVQLVQSGSELKKPGASVKVSCKASGYTFSSYYLNWVRQAPGQGLEWMGWIDTNTGNPTYAQAFTGRFVFSLDTSVSTAYLQIGSLQANDTAVYYCAREGGGWSGLYYYFGMDVWGQGTTVTVSS chain 2: EIVLTQSPGTLSLSPGERATVSCRASQSIGSNYLAWYQQKPGQAPRLLIYGASSRATGIPDRFSGSGSGTDFTLTISRLEPEDFAVYYCQQYGSSPPYTFGQGTKLEIK | 0.296 | 0.345 | > 10 | 0.468 | > 10 | > 10 | 0.063 |
| BD-913 (protein) chain 1: QVQLVQSGAEVKKPGSSVKVSCKASGGTFSTYAISWVRQAPGQGLEWMGGIIPIVGIANDAQKFQGRVTITADKSTSTAYMELSSLRSEDTAVFYCARAQRKQWPVEDAYDIWGQGTMVTVSS chain 2: QSVLTQPPSVSGAPGQRVTISCTGSSSNIGAGYDVHWYQQLPGTAPKLLIYGNSNRPSGVPDRFSGSKSGTSASLAITGLQAEDEADYYCQSYDSSLSGSVFGGGTKVTVL | > 10 | > 10 | > 10 | > 10 | > 10 | > 10 | 0.328 |
| BD55-556 (protein) chain 1: QVQLQESGPGLVKPSETLSLTCSVSNGSFSSYYWSWIRQPPGKGLEWIGYIYNSGSTNYNPSLKSRVTISVDPSKNQFSLKLSSVTAADTAVYYCARLIGDFRDDYNPRIYDAFDIWGQGTMVTVSS chain 2: DIQMTQSPSSVSASVGDRVTITCRASQGVSSWLAWYQQKPGKAPKLLIYAASSLQSGVPSRFSGSGSGTDFTLTISSLQPEDFATYYCQQANSFPLTFGQGTKLEIK | > 10 | > 10 | > 10 | > 10 | > 10 | > 10 | 0.0152 |
| BD-618 (protein) chain 1: EVQLVESGGGLVQPGGSLRLSCAVSGFIVSRNYMTWVRQAPGKGLEWVSLIYSGGSTFYTNSVKGRFTISRDNSKNTLYLQMDSLRAEDTAVYYCARGPYPRFDYWGQGTLVTVSS chain 2: not shown | 0.049 | 0.065 | > 10 | 0.0551 | 2.74 | > 10 | 0.0267 |
| BD55-583 (protein) chain 1: QVQLVQSGAEVKKPGSSVKVSCKASGGTFSSYAISWVRQAPGQGLEWMGGIIPIFGTTNYAQKFQGRVTITADESTSTAYMELSSLRSEDTAVYYCATFGDAVFGTANDYWGQGTLVTVSS chain 2: EIVLTQSPGTLSLSPGERATLSCRASQSVSSNYLAWYQQKPGQAPRLLIYGASSRATGIPDRFSGSGSGRDFTLTISRLEPEDFAVYYCQQYGSSRTFGQGTKVEIK | > 10 | > 10 | > 10 | > 10 | > 10 | > 10 | > 10 |
| BD55-598 (protein) chain 1: QVQLQQSGPGLVKPSQTLSLTCAISGDSVSSNSAAWNWIRQSPSRGLEWLGRTYYRSKWYNDYAVSVKSRITINPDTSKNQFSLQLNSVTPEDTAVYYCARDRLNSWVGEYYYDSDAFDIWGQGTMVTVSS chain 2: SYELTQSFSVSVALGQTARITCGGNNIGSKNVHWYQQKPGQAPVLVIYRDSNRPSGIPERFSGSNSGNTATLTISRAQAGDEADYYCQVWDSSTWVFGGGTKLTVL | > 10 | > 10 | > 10 | > 10 | > 10 | > 10 | > 10 |
